Reference: patent EP2033655B1

Target: His-EF-Tu (recombinant F. tularensis LVS elongation factor Tu with a polyhistidine tag) (Francisella tularensis LVS)

B1: biotinylated p63 peptide (RGG domain, last 63 amino acid residues of human nucleolin) (peptide)
peptide: KGEGGFGGRGGGRGGFGGRGGGRGGRGGFGGRGRGGFGGRGGFRGGRGGGGDHKPQGKKTKFE
modifications: not checked
- concentration of maximum binding: 8 µM
